Values of other authors, collected in patent US4868157A, “Dipeptidyl 2-amino-1,2-dideoxy-D-glucose derivatives as host resistance enhancers in AIDS-immunocompromised hosts and methods of use” (priority 1987, dated 1989).

Test system: AIDS-related virus

Interleukin-2: Protein made by white blood cells that mediates production of interferon
therapeutic benefit / clinical improvement in AIDS patients: not encouraging
